Assay results: patent publication US20100129432A1, “MICROORGANISM-KILLING COMBINATION” (TAIPEI MEDICAL UNIVERSITY, priority 2008, published 2010)

System: Candida albicans
Assay: Toluidine blue or Methylene Blue mediated PDI with or without 0.6% chitosan, survival fraction

**Q.** For `Cc1cc2nc3ccc(N(C)C)cc3[s+]c2cc1N.[Cl-]` [TB, toluidine blue], which “PDI effect (survival fraction)” value (0.5 mM TB, 630±5 nm 50 J/cm^2, 0.6% (w/v) chitosan 30 minutes after the PDI) is on record?
**A.** The value was “complete eradiation”.

**Q.** How did the “PDI effect (survival fraction)” value (0.5 mM MB, 630±5 nm 50 J/cm^2, 0.6% (w/v) chitosan 90 minutes after the PDI) turn out when `CN(C)c1ccc2nc3ccc(=[N+](C)C)cc-3sc2c1` [MB, methylene blue] was run?
**A.** The value was “complete eradiation”.
